# Mutational tolerance of the Zika virus NS2B-NS3 protease

The measurements come from Ni et al. 2025 (doi:10.1038/s41467-025-63602-z).

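Libraries of single mutants were passaged as virus pools on Huh-7.5 cells. Deep sequencing gave the change in frequency of each mutant relative to wild type, averaged over three replicate libraries (two for positions 207-308). The aim was to find sites where inhibitor-binding pockets cannot change.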

Chain scanned (Zika virus MR766; NS2B from position 2 to 131, then the start of NS3):
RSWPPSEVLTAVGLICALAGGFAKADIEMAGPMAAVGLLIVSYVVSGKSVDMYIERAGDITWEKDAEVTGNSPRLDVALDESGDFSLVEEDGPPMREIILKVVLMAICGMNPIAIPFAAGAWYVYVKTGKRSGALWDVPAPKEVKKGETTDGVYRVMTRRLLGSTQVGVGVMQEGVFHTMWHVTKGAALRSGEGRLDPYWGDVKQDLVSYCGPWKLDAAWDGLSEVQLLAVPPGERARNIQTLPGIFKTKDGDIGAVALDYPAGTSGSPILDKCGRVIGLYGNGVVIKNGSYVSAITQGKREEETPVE

The number is log2 of the effect relative to wild type; negative values mean reduced growth, higher values better tolerance.
Each entry names the wild-type residue, its position and the residue put in its place.
This list holds changes to tryptophan only.

* C211W: -4.09
* G212W: -7.55
* P213W: -3.79
* K215W: -6.76
* L216W: -7.42
* D217W: -2.19
* A218W: -5.95
* A219W: 0.16
* D221W: -4.62
* G222W: -6.07
* L223W: -0.37
* S224W: -5.75
* E225W: -5.48
* V226W: -4.95
* Q227W: -5.61
* L228W: -4.16
* L229W: -2.80
* A230W: -4.33
* V231W: -4.46
* P232W: -3.58
* P233W: -5.34
* G234W: -2.22
* E235W: -5.27
* R236W: -1.77
* A237W: -4.08
* R238W: -5.54
* N239W: -5.37
* I240W: -5.44
* Q241W: -6.10
* T242W: -5.35
* L243W: -4.59
* P244W: -4.30
* G245W: -5.63
* I246W: 1.66
* F247W: -6.13
* K248W: -6.19
* T249W: -4.93
* K250W: -6.18
* D251W: -5.54
* G252W: -6.61
* D253W: -5.66
* I254W: -5.76
* G255W: -6.61
* A256W: -5.30
* V257W: -4.30
* A258W: -5.13
* L259W: -5.32
* D260W: -4.75
* Y261W: -2.10
* P262W: -4.49
* A263W: -5.22
* G264W: -6.22
* T265W: -3.27
* S266W: -5.65
* G267W: -5.01
* S268W: -4.87
* P269W: -4.52
* I270W: -4.44
* L271W: -4.12
* D272W: -2.88
* K273W: -3.56
* C274W: -2.88
* G275W: -3.94
* R276W: -5.15

The opening 4 entries, copied out:

change,effect (log2)
C211W,-4.09
G212W,-7.55
P213W,-3.79
K215W,-6.76

Positions 1-103, 104-206 and 207-308 were made and measured as separate libraries.
Position 1 still belongs to NS2A. In the paper, -1 or higher counts as tolerated.
Six mutants with high scores were retested singly and none clearly outgrew wild type, so positive values are not proof of better growth.